Measured values from patent US20040102514A1 (priority 2003, published 2004).

What was measured:
[1] = test system: Sprague-Dawley rats; settings: 10 mg/kg iv, anaesthetized rats
[2] = test system: weanling pigs
[3] = test system: Sprague-Dawley rats; settings: 20 ppm in diet

## 12,13-Epoxytricothec-9-ene-3α,7α,8α, 15-tetraol
[1]
  duration of action (fed pattern): 20 to 34 min
  induction of fed pattern of gut motility: induce a fed pattern of gut motor activity
  time of onset of action after administration: ≤ 120 s
[2]; single food treat 0.11, 0.17 or 0.34 mg/kg bw, DON finding at medium or high doses
  emesis: no emesis occurred
[2]; single treat 0.11, 0.17 or 0.34 mg/kg bw at Day 1 AM
  persistence of effect on food consumption at Day 1 PM and following meals: wore off by the next meal
[2]; single treat 0.11, 0.17 or 0.34 mg/kg bw, effect at one or more of the three doses
  food consumption in the Day 1 AM meal following the treat: decreased food consumption
[3]; Day 3 to Day 5, Study 2
  normalized daily consumption compared to control: significant decreases
[3]; Study 2
  reduction in weight gain by Day 5 compared to control: approximately 16%
